Compound potency records, mixed from different reports. Data source: NIAID ChemDB in PubChem.

All rows: tests in culture

A number after MIC or MFC names an inhibition level or a share of isolates. a–b is a range or a potency band. ECn is the concentration giving n% inhibition of infection, replication or growth. Rows are shuffled and stem from different studies. Percent inhibition refers to the dose given; in toxicity tests it is the harm to the cells.

{"SMILES": "O=C(O)c1cn(C2CC2)c2c(Br)c(N3CCNCC3)c(F)cc2c1=O", "agent": "Mycobacterium fortuitum", "strain": "ATCC 6841", "measure": "MIC", "result": "≤0.03 µg/mL"}
{"SMILES": "CCOc1cc(Cc2cnc(N)nc2N)cc(OCC)c1-n1cccc1", "agent": "Mycobacterium ulcerans", "strain": "ATCC 19423", "measure": "MBC", "result": "0.5 µg/mL"}
{"SMILES": "NNC(=O)c1ccncc1", "agent": "Mycobacterium kansasii", "strain": "6509/96 clinical isolate", "method": "broth dilution / absorbance", "setting": "21 d", "measure": "MIC100", "result": "8 µM"}
{"SMILES": "CO[C@H]1/C=C/O[C@@]2(C)Oc3c(C)c(O)c4c(O)c(c5c(c4c3C2=O)NC2(CCN(CC(C)C)CC2)N=5)=NC(=O)/C(C)=C\\C=C\\[C@H](C)[C@H](O)[C@@H](C)[C@@H](O)[C@@H](C)[C@H](OC(C)=O)[C@@H]1C", "agent": "Mycobacterium avium", "strain": "Isolate 90-1799", "measure": "MIC", "result": ">1 µg/mL"}
{"SMILES": "C[C@H]1COC2(CCN(C3=NC(=O)c4cc(C(F)(F)F)cc([N+](=O)[O-])c4S3(=O)=O)CC2)O1", "agent": "Mycobacterium vaccae", "strain": "IMET 10670", "method": "broth dilution / turbidity", "measure": "MIC", "result": "<0.013 µg/mL"}
{"SMILES": "CC[C@@H](C(=O)[C@@H](C)[C@@H](O)[C@H](C)[C@@H]1O[C@@H]([C@@H](CC)C(=O)O)CC[C@@H]1C)[C@H]1O[C@@]2(C=C[C@@H](O)[C@@]3(CC[C@@](C)([C@H]4CC[C@](O)(CC)[C@H](C)O4)O3)O2)[C@H](C)C[C@@H]1C", "agent": "Mycobacterium abscessus", "strain": "L948", "method": "resazurin", "measure": "MIC", "result": ">20 µg/mL"}
{"SMILES": "CCC(C)(C)c1ccc(/C=N/N=C(\\N)c2ccccn2)cc1", "agent": "Mycobacterium fortuitum", "measure": "EC50", "result": ">1000 µM"}
{"SMILES": "CCn1cc(C(=O)O)c(=O)c2cc(F)c(N3CCNC(C)C3)nc21", "agent": "Mycobacterium fortuitum", "strain": "ATCC 6841", "measure": "MIC", "result": "0.25 µg/mL"}
{"SMILES": "NC(=O)c1cnccn1", "agent": "Mycobacterium fortuitum", "strain": "198 strains", "method": "agar", "measure": "inhibition", "dose": "25 µg/mL", "result": "<1%"}
{"SMILES": "CC1CN(c2c(F)cc3c(=O)c(C(=O)O)cn(-c4ccc(F)cc4F)c3c2F)CCN1", "agent": "Mycobacterium fortuitum", "strain": "ATCC 6841", "measure": "MIC", "result": "0.5 µg/mL"}
{"SMILES": "N/C(=N\\N=C\\c1cccc2ccccc12)c1ccccn1", "agent": "Mycobacterium fortuitum", "measure": "inhibition", "dose": "1000 µM", "result": "17.1%"}
{"SMILES": "CCCCNC(=O)Nc1ccc(S(=O)(=O)Nc2cc(C)on2)cc1", "agent": "Mycobacterium kansasii", "strain": "6509/96 clinical isolate", "method": "broth dilution / absorbance", "setting": "7 d", "measure": "MIC100", "result": "250 µM"}
{"SMILES": "COc1nc2ccc(Br)cc2cc1[C@@H](c1ccccc1)[C@@](O)(CCN(C)C)c1cccc2ccccc12", "agent": "Mycobacterium aurum", "mutations": "C410 deletion", "method": "resazurin", "measure": "MIC", "result": "0.04 µg/mL"}
{"SMILES": "CN[C@@H]1[C@H](O[C@H]2[C@H](O[C@H]3[C@H](O)[C@@H](O)[C@H](N=C(N)N)[C@@H](O)[C@@H]3N=C(N)N)O[C@@H](C)[C@]2(O)C=O)O[C@@H](CO)[C@H](O)[C@H]1O", "agent": "Mycobacterium avium complex", "strain": "Isolate C-20", "measure": "MIC", "result": ">400 µg/mL"}
{"SMILES": "O=C(O)c1cn(C2CC2)c2c(F)c(N3CCN4CCC3C4)c(F)cc2c1=O", "agent": "Mycobacterium avium", "strain": "RG3", "measure": "MIC", "result": "0.25 µg/mL"}
{"SMILES": "CSC(=S)N/N=C(\\C)c1ccc(OCc2ccc(F)cc2F)cc1", "agent": "Mycobacterium marinum", "strain": "Strain M", "method": "resazurin / absorbance", "measure": "MIC", "result": ">100 µM"}
{"SMILES": "CC(C)(C)c1ccc(/C=N/N=C(\\N)c2ccccn2)cc1", "agent": "Mycobacterium fortuitum", "measure": "inhibition", "dose": "100 µM", "result": "5.8%"}
{"SMILES": "Cc1cc(NS(=O)(=O)c2ccc(NC(=O)N3CCC3)cc2)no1", "agent": "Mycobacterium kansasii", "strain": "235/80", "method": "broth dilution / absorbance", "setting": "21 d", "measure": "MIC100", "result": "8 µM"}
{"SMILES": "NNC(=O)c1ccncc1", "agent": "Mycobacterium spp.", "strain": "JLS", "measure": "MIC", "result": "0.02–0.1 µg/mL"}
{"SMILES": "N/N=C(\\N)c1ccccn1", "agent": "Mycobacterium fortuitum", "measure": "inhibition", "dose": "1000 µM", "result": "7.7%"}
{"SMILES": "Nc1ccc(C(=O)O)c(O)c1", "agent": "Mycobacterium avium complex", "strain": "97 strains", "method": "agar", "measure": "inhibition", "dose": "10 µg/mL", "result": "10%"}
{"SMILES": "CC[C@@H](CO)NCCN[C@@H](CC)CO", "agent": "Mycobacterium avium intracellulare", "strain": "N-752 (HIV-)", "measure": "MIC", "result": "0.5 µg/mL"}
{"SMILES": "Cc1cc(-c2cc3c(cc2F)c(=O)c(C(=O)O)cn3C2CC2)cc(C)n1", "agent": "Mycobacterium avium", "strain": "3350", "measure": "MBC", "result": "4 µg/mL"}
{"SMILES": "CO[C@H]1/C=C/O[C@@]2(C)Oc3c(C)c(O)c4c(O)c(c(/C=N/N5CCN(C)CC5)c(O)c4c3C2=O)NC(=O)/C(C)=C\\C=C\\[C@H](C)[C@H](O)[C@@H](C)[C@@H](O)[C@@H](C)[C@H](OC(C)=O)[C@@H]1C", "agent": "Mycobacterium avium intracellulare", "strain": "Serovar 8", "measure": "inhibition", "dose": "5 µg/mL", "result": "77%"}
{"SMILES": "NC[C@H]1O[C@H](O[C@H]2[C@H](O)[C@@H](O[C@H]3O[C@H](CO)[C@@H](O)[C@H](N)[C@H]3O)[C@H](N)C[C@@H]2N)[C@H](O)[C@@H](O)[C@@H]1O", "agent": "Mycobacterium avium intracellulare", "strain": "N-846 (HIV-)", "measure": "MIC", "result": "16 µg/mL"}
{"SMILES": "COc1cc(Cc2cnc(N)nc2N)cc(OC)c1Br", "agent": "Mycobacterium ulcerans", "strain": "Isolate 842", "measure": "MBC", "result": "8 µg/mL"}
{"SMILES": "CC1CN(c2c(F)cc3c(=O)c(C(=O)O)cn(C4CC4)c3c2Br)CCN1", "agent": "Mycobacterium fortuitum", "strain": "ATCC 6841", "measure": "MIC", "result": "≤0.03 µg/mL"}
{"SMILES": "N/C(=N\\N=C\\c1ccccc1OCc1ccccc1)c1ccccn1", "agent": "Mycobacterium fortuitum", "measure": "inhibition", "dose": "100 µM", "result": "4.2%"}
{"SMILES": "O=C(O)c1cn(-c2ccc(F)cc2F)c2nc(N3CCNCC3)c(F)cc2c1=O", "agent": "Mycobacterium fortuitum", "strain": "ATCC 6841", "measure": "MIC", "result": "0.13 µg/mL"}
{"SMILES": "CO[C@H]1/C=C/O[C@@]2(C)Oc3c(C)c(O)c4c(O)c(c5c(c4c3C2=O)NC2(CCN(CC(C)C)CC2)N=5)=NC(=O)/C(C)=C\\C=C\\[C@H](C)[C@H](O)[C@@H](C)[C@@H](O)[C@@H](C)[C@H](OC(C)=O)[C@@H]1C", "agent": "Mycobacterium avium complex", "strain": "1854-4", "measure": "MBC", "result": "32 µg/mL"}
{"SMILES": "COc1c(N2CCNCC2)c(F)cc2c(=O)c(C(=O)O)cn(C3CC3)c12", "agent": "Mycobacterium fortuitum", "strain": "ATCC 6841", "measure": "MIC", "result": "0.06 µg/mL"}
{"SMILES": "CNC(=O)Nc1ccc(S(=O)(=O)Nc2cc(C)on2)cc1", "agent": "Mycobacterium kansasii", "strain": "6509/96 clinical isolate", "method": "broth dilution / absorbance", "setting": "21 d", "measure": "MIC100", "result": "32 µM"}
{"SMILES": "CCOc1c(N2CC(C)NC(C)C2)c(F)cc2c(=O)c(C(=O)O)cn(C3CC3)c12", "agent": "Mycobacterium fortuitum", "strain": "ATCC 6841", "measure": "MIC", "result": "0.06 µg/mL"}
{"SMILES": "CCCCCNC(=O)Nc1ccc(S(=O)(=O)Nc2cc(C)on2)cc1", "agent": "Mycobacterium kansasii", "strain": "6509/96 clinical isolate", "method": "broth dilution / absorbance", "setting": "14 d", "measure": "MIC100", "result": "500 µM"}
{"SMILES": "CCOc1c(N2CCN(CC)CC2)c(F)cc2c(=O)c(C(=O)O)cn(C3CC3)c12", "agent": "Mycobacterium fortuitum", "strain": "ATCC 6841", "measure": "MIC", "result": "0.25 µg/mL"}
{"SMILES": "CO[C@H]1/C=C/O[C@@]2(C)Oc3c(C)c(O)c4c(O)c(c(/C=N/N5CCN(C)CC5)c(O)c4c3C2=O)NC(=O)/C(C)=C\\C=C\\[C@H](C)[C@H](O)[C@@H](C)[C@@H](O)[C@@H](C)[C@H](OC(C)=O)[C@@H]1C", "agent": "Mycobacterium bovis", "strain": "SB1953", "method": "resazurin", "measure": "MIC", "result": "1 µg/mL"}